Experimental data reported in PubChem BioAssay AID602399 (Sanford-Burnham Center for Chemical Genomics, 2012).
This is a selection; strong and weak results do not stand in their true shares. The source made the active and inactive calls. Cut-off read from the data, not from the text of the source: active = inhibition above about 26%; inactive = the rest.

tested on: Nicotinate-nucleotide adenylyltransferase NadD (Staphylococcus aureus N315); test: inhibitors of S. aureus NadD, primary screen, biochemical, colorimetric, uHTS (AID 602399); settings: purified NadD enzyme, colorimetric absorbance read-out; at 20 µM; hits give high values

Row | SMILES | inhibition
1 | O=[N+]([O-])c1ccc(O)c(/C=N/Nc2ccc([N+](=O)[O-])cc2[N+](=O)[O-])c1 | inactive: 6.79%
2 | O=[N+]([O-])c1ncn(CCn2cnc([N+](=O)[O-])n2)n1 | inactive: -1.42%
3 | CC(=O)NC(SC(=S)N(C)C)C(Cl)(Cl)Cl (stereo not given) | inactive: -6.38%
4 | O=[As](O)(c1ccccc1)c1ccc(O)cc1 | inactive: -9.96%
5 | C(Cc1nn[nH]n1)Cc1nn[nH]n1 | inactive: -5.54%
6 | Nc1ccc([As](=O)(O)c2ccc([N+](=O)[O-])cc2)cc1 | inactive: -3.95%
7 | O=C(OC1CN2CCC1CC2)c1cccc(Cl)c1 (stereo not given) | inactive: 4.52%
8 | COc1ccc(N)c([N+](=O)[O-])c1[N+](=O)[O-] | inactive: -0.468%
9 | Nc1ccc(CCCCOc2ccccc2)cc1 | inactive: 0.409%
10 | O=P(Nc1ccccn1)(c1ccc(Br)cc1)c1ccc(Br)cc1 | inactive: 3.96%
11 | CN(C)C1(CNC(=O)c2ccc(Cl)c(S(N)(=O)=O)c2)CCCCC1 | inactive: -7.57%
12 | C[C@H]1OP(=O)(Oc2ccccc2)[C@H](O)[C@H](O)[C@H]1N=[N+]=[N-] (stereo not given in full) | inactive: 1.89%
13 | O=P(Nc1nc2ccccc2s1)(c1ccccc1)c1ccccc1 | inactive: -0.628%
14 | CC(C)C(=O)NC(Sc1ccccc1)C(Cl)(Cl)Cl (stereo not given) | inactive: 6.49%
15 | O=P(Nc1nccs1)(c1ccccc1)c1ccccc1 | inactive: 0.636%
16 | c1nnnn1CCn1cnnn1 | inactive: 6.41%
17 | COC(=O)C1(C)COP(=O)(NCc2ccccc2)OC1 (stereo not given) | inactive: -2.76%
18 | CC(=O)c1ccc(N2CC2c2ccncc2)cc1 (stereo not given) | inactive: -6.58%
19 | N#C/C(=C\c1ccc(N(CCBr)CCBr)cc1)C(N)=O | inactive: -3.08%
20 | C[C@H]1OP(=O)(Oc2ccccc2)C[C@@H]2O[C@@H]21 (stereo not given in full) | inactive: -4.08%
21 | C[C@@H]1C=CCP(=O)(Oc2ccccc2)O1 (stereo not given in full) | inactive: -2.65%
22 | Cc1ccccc1CN(C)C(=O)COC(=O)C(O)(c1ccccc1)c1ccccc1 | inactive: -8.39%
23 | CC(=O)Nc1ccc(Oc2c([N+](=O)[O-])cc([N+](=O)[O-])cc2[N+](=O)[O-])cc1 | inactive: 7.34%
24 | CC(=O)Nc1ccc([As](=O)(O)O)c(O)c1 | inactive: -2.35%
25 | CCOc1ccc(C2=NCC(CBr)S2)cc1 (stereo not given) | inactive: -1.73%

Row | SMILES | inhibition
26 | O=P1(Nc2nc3ccc(Cl)cc3s2)COc2ccccc2O1 (stereo not given) | inactive: -0.515%
27 | CCc1cc(O)c([N+](=O)[O-])c(C)c1[N+](=O)[O-] | inactive: -0.877%
28 | CC(C)(C)C(=O)NC(Sc1ccccc1)C(Cl)(Cl)Cl (stereo not given) | inactive: -4.39%
29 | Cc1ccc(OP(=O)(Nc2ccccn2)Oc2ccc(C)cc2)cc1 | inactive: -1.14%
30 | CC(=O)NC(SC(=S)N(CC(C)C)CC(C)C)C(Cl)(Cl)Cl (stereo not given) | inactive: -2.96%
31 | COC(=O)c1cc2c(s1)N=C(c1ccccc1)N(C)P2(=O)N1CCOCC1 (stereo not given) | inactive: -1.29%
32 | CCC(=O)N1C2C3N(C(=O)CC)C1C1N(C(=O)CC)C(C(N1C(=O)CC)N3C(=O)CC)N2C(=O)CC | inactive: 3.3%
33 | O=C(OC1CN2CCC1CC2)c1ccccc1 (stereo not given) | inactive: -1.61%
34 | O=c1c2cc([N+](=O)[O-])ccc2[nH]c2c([N+](=O)[O-])cc([N+](=O)[O-])cc12 | inactive: -1.95%
35 | CN(C)C(=O)Oc1noc2ccccc12 | inactive: 0.643%
36 | CC(NC(=O)COC(=O)C(O)(c1ccccc1)c1ccccc1)c1ccccc1 (stereo not given) | inactive: -3.04%
37 | Cc1ccccc1OP(=O)(Nc1ccccn1)Oc1ccccc1C | inactive: -0.566%
38 | CCNC(=S)/N=C(\N)N[N+](=O)[O-] | inactive: -0.177%
39 | O=C(NC1CCS(=O)(=O)C1)NP(=S)(Oc1ccccc1)Oc1ccccc1 (stereo not given) | inactive: -9.56%
40 | Cc1ccc(NP(=O)(Oc2cccc(C)c2)Oc2cccc(C)c2)nc1 | inactive: 4.29%
41 | c1ccc(-c2nn[nH]n2)c(-c2nn[nH]n2)c1 | inactive: -4.53%
42 | O=P1(N(CCCl)CCCl)OCCC2CCCCN21 (stereo not given) | inactive: 2.59%
43 | CCN(N=Nc1nonc1N)c1nonc1N | inactive: 0.552%
44 | Nc1cccc2ccc([As](=O)(O)O)cc12 | inactive: -1.62%
45 | CCCC1OP(N)(=O)OCC1CC (stereo not given) | inactive: 0.79%
46 | CC(=O)Nc1ccc([As](=O)(O)O)cc1 | inactive: 1.97%
47 | O=C(O)c1ccccc1[As](=O)(O)O | inactive: -2.66%
48 | O=P(Nc1nc2ccc(Cl)cc2s1)(c1ccccc1)c1ccccc1 | inactive: 5.65%
49 | CN(C)P(=O)(N(C)C)n1c(Nc2ccccc2)nnc1-c1ccccc1 | inactive: -5.32%
50 | Cc1ccc(NP(=O)(Oc2ccccc2F)Oc2ccccc2F)nc1 | inactive: 1.72%

Row | SMILES | inhibition
51 | CN(C(=O)Cc1ccc(Cl)c(Cl)c1)[C@H]1CCCC[C@@H]1N1CCCC1 | inactive: -2.31%
52 | Cc1cc(SC(NC(=O)c2ccc(F)cc2)C(Cl)(Cl)Cl)ncn1 (stereo not given) | inactive: -3.22%
53 | CCOP(=O)(Nc1ccccc1)OCC | inactive: -0.986%
54 | Nc1cc(N)c2nonc2c1[N+](=O)[O-] | inactive: -5.18%
55 | CC(C)CC(=O)NC(Sc1ccc(Cl)cc1)C(Cl)(Cl)Cl (stereo not given) | inactive: 0.849%
56 | O=C(NC(Sc1ccncn1)C(Cl)(Cl)Cl)c1ccccc1 (stereo not given) | inactive: -5.35%
57 | Oc1ccccc1CNc1ccccn1 | inactive: -6.14%
58 | O=[N+]([O-])C1C(O)C(O)C([N+](=O)[O-])C(O)C1O (stereo not given) | inactive: 6.63%
59 | NC(=O)c1cc([N+](=O)[O-])cc([N+](=O)[O-])c1N | inactive: -3.67%
60 | Cc1ccc(N/C(=N/P(=O)(N2CCOCC2)N2CCOCC2)N2CCOCC2)cc1 | inactive: -6.59%
61 | CN(C(=O)Cc1ccc(Cl)c(Cl)c1)[C@H]1CCCC[C@H]1N1CCCC1 | inactive: 0.563%
62 | Cc1ccc(OP(=O)(Nc2nccs2)Oc2ccc(C)cc2)cc1 | inactive: -7.66%
63 | COc1ccccc1OP(=O)(Nc1ccc(C)cn1)Oc1ccccc1OC | inactive: -8.19%
64 | CN1CCCC(OC(=O)C(c2ccccc2)c2ccccc2)C1 (stereo not given) | inactive: -3.4%
65 | Clc1ccc(Cl)c(NC2=NCC(CBr)S2)c1 (stereo not given) | inactive: 5.74%
66 | C[N+]1=C2C=CC=CC=C2SC12C([N+](=O)[O-])=CC([N+](=O)[O-])=C[C-]2[N+](=O)[O-] (stereo not given) | inactive: 11.7%
67 | Nc1ccc([As](=O)(O)c2ccc(N)cc2)cc1 | inactive: -4.61%
68 | CCN(/C(=N/P(=O)(N1CCOCC1)N1CCOCC1)N1CCOCC1)c1ccc(OC)cc1 | inactive: 6.88%
69 | CN(C)C(=O)OCCc1n(C)cc[n+]1C | inactive: 3.22%
70 | CC(C)c1nc(Nc2ccccc2)n(P(=O)(N(C)C)N(C)C)n1 | inactive: -4.26%
71 | CC(C)=N/N=C(\N)N[N+](=O)[O-] | inactive: -5.85%
72 | CC1CCN(C(=O)Oc2c(Cl)cc(Cl)c3cccnc23)CC1 | inactive: 1.14%
73 | c1cc(-c2nn[nH]n2)ccc1-c1nn[nH]n1 | inactive: -1.82%
74 | COc1ccc(C2=NCC(CBr)S2)cc1 (stereo not given) | inactive: -5.1%
75 | O=[N+]([O-])c1cccc2n[nH]nc12 | inactive: 3.54%

Row | SMILES | inhibition
76 | CC(=O)N1C2C3N(C(C)=O)C1C1N(C(C)=O)C(C(N1C(C)=O)N3C(C)=O)N2C(C)=O | inactive: 3.94%
77 | CCc1nc2c(n1)c1c(non1O)c1c2no[n+]1[O-] | inactive: 8.98%
78 | O=[N+]([O-])c1cc([N+](=O)[O-])c(CCNc2ccccc2)c([N+](=O)[O-])c1 | inactive: 3.77%
79 | Cc1ccc(NP(=O)(Oc2ccccc2)Oc2ccccc2)nc1 | inactive: -4.28%
80 | CC(C)(C)C(=O)NC(Sc1ccncn1)C(Cl)(Cl)Cl (stereo not given) | inactive: 0.519%
81 | O=[N+]([O-])c1ncn(CCn2ncnc2[N+](=O)[O-])n1 | inactive: 11.6%
82 | COC(=O)C1(C)COP(=O)(Nc2ccccc2)OC1 (stereo not given) | inactive: -3.57%
83 | O=[N+]([O-])c1cccc(NC2=NCC(CBr)S2)c1 (stereo not given) | inactive: -6.04%
84 | O=C(O)CNc1ccc([As](=O)(O)O)cc1 | inactive: -7.7%
85 | O=P1(N(CCCl)CCCl)OCCCS1 (stereo not given) | inactive: -1.33%
86 | O=C(Nc1cc([As](=O)(O)O)ccc1O)c1ccccc1 | inactive: -6.91%
87 | CCOC(=O)Nc1cccc([As](=O)(O)O)c1 | inactive: -3.04%
88 | O=[N+]([O-])c1ccc(Nc2ccc(Oc3ccc([N+](=O)[O-])cc3[N+](=O)[O-])cc2)c([N+](=O)[O-])c1 | inactive: 7.14%
89 | O=P(Nc1ccccn1)(c1cccc2ccccc12)c1cccc2ccccc12 | inactive: 14.9%
90 | Cc1cc(SC(NC=O)C(Cl)(Cl)Cl)ncn1 (stereo not given) | inactive: 4.42%
91 | CC1CCNP(=O)(N(CCCl)CCCl)O1 (stereo not given) | inactive: -6.54%
92 | CCOC(=O)Nc1ccc([As](=O)(O)O)c(O)c1 | inactive: -3.75%
93 | O=C(O)C(O)c1ccc(N(CCCl)CCCl)cc1 (stereo not given) | inactive: 0.685%
94 | Cc1cc(SC(NC(=O)c2ccccc2)C(Cl)(Cl)Cl)nc(C(C)C)n1 (stereo not given) | inactive: 2.13%
95 | CCCCOc1ccc(C(=O)NCC2(N3CCCCC3)CCCCC2)cc1OC | inactive: -4.41%
96 | COP(=O)(OC)N1CC1c1ccccc1 (stereo not given) | inactive: -8.81%
97 | CCOC(=O)c1ccc(NC(=O)C(C)(CCl)SC)cc1 (stereo not given) | inactive: -10.1%
98 | CSc1ccc(Nc2c([N+](=O)[O-])cc([N+](=O)[O-])cc2[N+](=O)[O-])cc1 | inactive: -4.41%
99 | O=C(OC1CN2CCC1CC2)c1cccc([N+](=O)[O-])c1 (stereo not given) | inactive: -8.11%
100 | CCC(C)N(CC(C)C)C(=S)SC(NC(C)=O)C(Cl)(Cl)Cl (stereo not given) | inactive: -5.53%
